Results deposited as PubChem BioAssay AID1259414 (Drosophila RNAi Screening Center, 2018)

Aim: 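Host factors increasing or decreasing Wolbachia levels in cultured fly cells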 (primary screen)
Cell system: Drosophila JW18 cells infected with Wolbachia
Reagent: long dsRNA against Drosophila genes, 0.25 µg dsRNA per well of a 384-well plate
Time to read-out: 5 days
Treatment: cells persistently infected with Wolbachia before knock-down; no added drug
Measured: 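Imaged fluorescence in situ signal for Wolbachia 23S rRNA per DAPI-counted host cell, given as a robust z-score within each plate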
Reading the numbers: Wolbachia per cell robust z: higher = more Wolbachia per host cell than the plate typical
Hit rule: 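Hit when robust z is 1.5 or more, or -1.5 or less, in at least two of three replicates; excludes dsRNAs with several or no targets, genes not expressed in JW18 and well A1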
The screen tested about 24,000 reagents; below is an unselected part of those with a known target gene and a result. In the full data, about 1,210 (5%) were called active. 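Inactive calls also include excluded dsRNAs with several or no targets, genes unexpressed in JW18, and well A1, regardless of score.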 A plus sign joins genes that one reagent is predicted to hit.

target	amplicon	Wolbachia per cell robust z, rep 1	Wolbachia per cell robust z, rep 2	Wolbachia per cell robust z, rep 3	outcome
ppk20 (pickpocket 20)	DRSC16260	0.199	-4.43	-0.186	inactive
ppk20 (pickpocket 20)	DRSC28819	0.776	1.92	0.204	inactive
CG8509	DRSC20109	-2.35	0.662	-2.72	active
CG8509	DRSC41577	0.513	0.974	-2.12	inactive
thoc7	DRSC08512	0.17	0.414	0.559	inactive
thoc7	DRSC29470	1.15	0.28	-0.355	inactive
IA-2 (IA-2 protein tyrosine phosphatase)	DRSC00304	-0.566	-0.328	0.21	inactive
IA-2 (IA-2 protein tyrosine phosphatase)	DRSC00652	-0.16	1.79	2	active
IA-2 (IA-2 protein tyrosine phosphatase)	DRSC23335	-1.14	-0.805	-1.2	inactive
IA-2 (IA-2 protein tyrosine phosphatase)	DRSC24588	-1.02	-0.148	0.521	inactive
ms(2)34Fe (male sterile (2) 34Fe)	DRSC01905	0.0595	-0.169	-1.21	inactive
CG3640	DRSC04399	-2.65	0.428	0.675	inactive
lz (lozenge)	DRSC18790	-1.07	-6.06	0.532	inactive
lz (lozenge)	DRSC22302	0.0231	0.318	-1.14	inactive
lz (lozenge)	DRSC25157	-0.168	0.053	0.0872	inactive
CG18789	DRSC02696	-5.91	-5.14	-0.474	inactive
CG6271	DRSC16006	0.428	0.479	0.203	inactive
CG6271	DRSC25865	-0.703	-0.0705	-3	inactive
CR11235 (pseudo)	DRSC20480	-0.116	0.196	-0.193	inactive
CR11235 (pseudo)	DRSC28870	-1.26	-1.12	-1.19	inactive
Cpr47Ef (Cuticular protein 47Ef)	DRSC06336	1.25	-2.63	-0.18	inactive
Cpr47Ef (Cuticular protein 47Ef)	DRSC22450	-1.69	0.314	-0.573	inactive
Cpr47Ef (Cuticular protein 47Ef)	DRSC25090	-0.936	0.152	-0.126	inactive
Cpr47Ef (Cuticular protein 47Ef)	DRSC25665	0.836	-0.0758	-1.52	inactive
VhaPPA1-1 (Vacuolar H[+] ATPase PPA1 subunit 1)	DRSC16170	0.328	0.662	0.909	inactive
VhaPPA1-1 (Vacuolar H[+] ATPase PPA1 subunit 1)	DRSC24144	-1.64	0.367	0.4	inactive
d4	DRSC04881	0.91	-0.874	-0.794	inactive
d4	DRSC22674	0.551	0.246	-0.347	inactive
d4	DRSC26581	0.341	0.447	-0.0187	inactive
CG30344	DRSC22510	-0.471	-0.454	1.01	inactive
CG30344	DRSC26387	0.178	0.507	-0.304	inactive
CG32409	DRSC08780	0.348	-0.347	-2.07	inactive
CG32409	DRSC25913	-1.01	-0.423	0.365	inactive
NP15.6	DRSC16756	-0.396	0.525	-5.32	inactive
NP15.6	DRSC26741	0.812	1.2	-1.05	inactive
yellow-e2	DRSC15169	-5.05	0.543	0.772	inactive
CG10947	DRSC02111	-0.609	-0.052	-0.313	inactive
CG10947	DRSC27404	0.0926	0.511	-0.614	inactive
rsh (radish)	DRSC19687	-1.05	0.465	-0.949	inactive
rsh (radish)	DRSC22865	-0.602	-2.04	-1.7	inactive
rsh (radish)	DRSC23355	-0.191	0.824	-0.165	inactive
CG31296	DRSC13092	0.241	0.602	-5.9	inactive
Pkc53E (Protein C kinase 53E)	DRSC07510	1.11	-0.676	0.851	inactive
Gr64e + Gr64d	DRSC28375	-0.163	-1.86	-0.826	inactive
Rif1 (Rap1 interacting factor 1)	DRSC05593	-0.592	0.387	-0.713	inactive
CAP	DRSC06743	0.696	0.891	-0.67	inactive
CAP	DRSC06744	-3.73	0.615	0.643	inactive
CAP	DRSC06745	-0.273	0.738	0.53	inactive
CAP	DRSC06846	-1.14	0.126	-2.1	inactive
CAP	DRSC40686	1.01	-1.59	-0.382	inactive
Lcp1 (Larval cuticle protein 1)	DRSC07455	-1.18	0.405	0.701	inactive
Lcp1 (Larval cuticle protein 1)	DRSC41547	-0.234	-0.42	-0.686	inactive
CAHbeta (Carbonic anhydrase beta)	DRSC14449	-1.95	-0.0803	-0.735	inactive
CG42673	DRSC08989	-0.513	0.995	-0.518	inactive
CG42673	DRSC08991	4.17	4.54	2.48	inactive
CG42673	DRSC10177	-2.57	0.566	0.401	inactive
CG42673	DRSC10264	0.597	-0.143	0.47	inactive
CG42673	DRSC10353	0.346	0.283	0.142	inactive
CG42673	DRSC10354	-0.854	-0.879	-0.809	inactive
CG42673	DRSC25788	0.0291	-0.451	-0.371	inactive
alpha-Man-Ia (alpha-Mannosidase class I a)	DRSC17642	0.92	-0.886	0.674	inactive
alpha-Man-Ia (alpha-Mannosidase class I a)	DRSC18162	0.256	0.668	0.702	inactive
alpha-Man-Ia (alpha-Mannosidase class I a)	DRSC18163	0.832	-0.995	-0.328	inactive
alpha-Man-Ia (alpha-Mannosidase class I a)	DRSC18735	-1.16	-0.408	-0.58	inactive
alpha-Man-Ia (alpha-Mannosidase class I a)	DRSC23100	0.656	0.0536	0.492	inactive
CG14762	DRSC05073	-1.96	-1.33	-0.393	inactive
CG14762	DRSC06496	-1.27	-0.058	0.386	inactive
Samuel	DRSC21731	-0.0348	-2.12	-0.34	inactive
Samuel	DRSC23114	0.631	0.401	-0.355	inactive
CG7370 + Syn1	DRSC27632	-0.744	0.72	-0.331	inactive
ATP8A (ATPase 8A)	DRSC05421	-0.895	-6.26	-1.41	inactive
ATP8A (ATPase 8A)	DRSC06643	-0.0959	0.0639	0.838	inactive
ATP8A (ATPase 8A)	DRSC06644	-2.8	-3.03	-1.95	inactive
AstC (Allatostatin C)	DRSC02403	-0.468	-1.17	-0.609	inactive
CG9133 + CG9130	DRSC08624	-4.9	-6.07	-3.35	inactive
CG9133 + CG9130	DRSC08625	-0.679	-1.46	-0.277	inactive
CG12822 + CG18853 + Atg10	DRSC20757	-0.0694	-1.43	-1.23	inactive
Snmp2 (Sensory neuron membrane protein 2)	DRSC10228	-0.0515	-0.955	-1.29	inactive
Snmp2 (Sensory neuron membrane protein 2)	DRSC10843	0.381	-0.554	-1.44	inactive
Or23a (Odorant receptor 23a)	DRSC38926	-0.213	0.03	0.258	inactive
DnaJ-H (DnaJ homolog)	DRSC03273	-0.716	-1.77	-0.386	inactive
PPO2 (Prophenoloxidase 2)	DRSC07102	0.5	1.12	-1.21	inactive
CG15605	DRSC06558	0.598	1.02	0.899	inactive
Gld (Glucose dehydrogenase)	DRSC12595	0.492	1.31	0.321	inactive
CG12769	DRSC25056	-0.356	-0.12	0.367	inactive
yellow-g	DRSC08575	0.953	0.819	1.29	inactive
CG8289	DRSC20101	-3.71	-0.0992	-0.53	inactive
CG8289	DRSC25677	-1.55	-0.913	-1.07	inactive

Reformatted: 12 of the entries above.
CG9133 + CG9130 [DRSC08624]
- Wolbachia per cell robust z, rep 1: -4.9
- Wolbachia per cell robust z, rep 2: -6.07
- Wolbachia per cell robust z, rep 3: -3.35
- outcome: inactive

CG9133 + CG9130 [DRSC08625]
- Wolbachia per cell robust z, rep 1: -0.679
- Wolbachia per cell robust z, rep 2: -1.46
- Wolbachia per cell robust z, rep 3: -0.277
- outcome: inactive

CG12822 + CG18853 + Atg10 [DRSC20757]
- Wolbachia per cell robust z, rep 1: -0.0694
- Wolbachia per cell robust z, rep 2: -1.43
- Wolbachia per cell robust z, rep 3: -1.23
- outcome: inactive

Snmp2 (Sensory neuron membrane protein 2) [DRSC10228]
- Wolbachia per cell robust z, rep 1: -0.0515
- Wolbachia per cell robust z, rep 2: -0.955
- Wolbachia per cell robust z, rep 3: -1.29
- outcome: inactive

Snmp2 (Sensory neuron membrane protein 2) [DRSC10843]
- Wolbachia per cell robust z, rep 1: 0.381
- Wolbachia per cell robust z, rep 2: -0.554
- Wolbachia per cell robust z, rep 3: -1.44
- outcome: inactive

Or23a (Odorant receptor 23a) [DRSC38926]
- Wolbachia per cell robust z, rep 1: -0.213
- Wolbachia per cell robust z, rep 2: 0.03
- Wolbachia per cell robust z, rep 3: 0.258
- outcome: inactive

DnaJ-H (DnaJ homolog) [DRSC03273]
- Wolbachia per cell robust z, rep 1: -0.716
- Wolbachia per cell robust z, rep 2: -1.77
- Wolbachia per cell robust z, rep 3: -0.386
- outcome: inactive

PPO2 (Prophenoloxidase 2) [DRSC07102]
- Wolbachia per cell robust z, rep 1: 0.5
- Wolbachia per cell robust z, rep 2: 1.12
- Wolbachia per cell robust z, rep 3: -1.21
- outcome: inactive

CG15605 [DRSC06558]
- Wolbachia per cell robust z, rep 1: 0.598
- Wolbachia per cell robust z, rep 2: 1.02
- Wolbachia per cell robust z, rep 3: 0.899
- outcome: inactive

Gld (Glucose dehydrogenase) [DRSC12595]
- Wolbachia per cell robust z, rep 1: 0.492
- Wolbachia per cell robust z, rep 2: 1.31
- Wolbachia per cell robust z, rep 3: 0.321
- outcome: inactive

CG12769 [DRSC25056]
- Wolbachia per cell robust z, rep 1: -0.356
- Wolbachia per cell robust z, rep 2: -0.12
- Wolbachia per cell robust z, rep 3: 0.367
- outcome: inactive

yellow-g [DRSC08575]
- Wolbachia per cell robust z, rep 1: 0.953
- Wolbachia per cell robust z, rep 2: 0.819
- Wolbachia per cell robust z, rep 3: 1.29
- outcome: inactive
